Anti-infective test results gathered from many reports (values: NIAID ChemDB through PubChem).

Common to all: whole-cell or culture tests; agent: Varicella zoster virus

An empty or dashed field is not shown.

SMILES,read-out,cell line,method,dose,strain,result
Cn1cc(C(=O)NCc2ccc(Cl)cc2)c(=O)c2cc(CN3CCOCC3)ccc21,inhibition,HFF,plaque count,2.2 µM,GA varicella isolate,90%
COc1cc(OC)c(NC(=S)Nc2ccc(NC(C)=O)cc2C#N)cc1Cl,inhibition,HFF,ELISA,10 µg/mL,ELLEN,3%
CCc1cn([C@@H]2O[C@H](CO)[C@@H](O)[C@@H]2O)c(=S)nc1N,EC50,MRC-5,plaque count,-,CAQU (TK+),>264.9 µM
COc1cc(OCc2ccccc2)c(NC(=S)Nc2ccc(NC(C)=O)cc2)cc1Cl,inhibition,HFF,ELISA,10 µg/mL,ELLEN,105%
O=c1[nH]c(=O)n([C@H]2C[C@H](O)[C@@H](CO)O2)cc1I,inhibition,HELF,plaque count,1 µg/mL,YS,57%
COc1cc(NC(=O)c2ccccc2F)ccc1NC(=S)NC1=CC(Cl)C(C)(OC)C=C1,inhibition,HFF,ELISA,10 µg/mL,ELLEN,10%
Nc1nc2c(ncn2COCCO)c(=O)[nH]1,inhibition,HELF,plaque count,0.1 µg/mL,Ohtomo,61%
Cc1cn([C@@H]2O[C@H](CO)[C@@H](O)[C@@H]2O)c(=S)nc1N,EC50,MRC-5,plaque count,-,CAQU (TK+),121 µM
Nc1nc2c(ncn2COC(CO)CO)c(=O)[nH]1,EC50,HEL,cytopathic effect,-,Oka CF1742-resistant,6 µM
O=c1[nH]c(=O)n([C@@H]2O[C@H](CO)[C@@H](O)[C@@H]2O)cc1/C=C/Cl,inhibition,HELF,plaque count,0.0001 µg/mL,KANNO,23%
Nc1nc2c(ncn2CCC(CO)CO)c(=O)[nH]1,EC50,HEL,cytopathic effect,-,Clinical isolate VZV-27,4.03 µM
O=C(NCc1ccc(Cl)cc1)c1c[nH]c2ccc(CCCO)cc2c1=O,EC50,-,plaque count,-,DIE,0.1 µM
Nc1nc(=S)n([C@@H]2O[C@H](CO)[C@@H](O)[C@@H]2O)cc1CO,EC50,MRC-5,plaque count,-,Kanno-Kohmura (TK-),>253.5 µM
O=C(O)CP(=O)(O)O,EC50,HEL,cytopathic effect,-,Oka PMEDAP-resistant,118.5 µM
O=c1[nH]c(=O)n([C@H]2C[C@H](O)[C@@H](CO)O2)cc1/C=C/Br,inhibition,HELF,plaque count,0.001 µg/mL,Kawaguchi,0%
Nc1nc(N)c2ncn(CCOCP(=O)(O)O)c2n1,EC50,HEL,cytopathic effect,-,Oka BVDU-resistant,4.3 µM
CCCCCc1ccc(-c2cc3cn(C4C[C@H](F)[C@@H](CO)O4)c(=O)nc3o2)cc1,EC50,-,-,-,07 (TK-),>2 µM
CCc1cn([C@@H]2O[C@H](CO)[C@@H](O)[C@@H]2O)c(=O)[nH]c1=O,inhibition,HELF,plaque count,10 µg/mL,OKA,0%
C=Cc1cn([C@H]2C[C@H](O)[C@@H](CO)O2)c(=S)[nH]c1=O,EC50,MRC-5,plaque count,-,CAQU (TK+),72.6 µM

Again, the opening 2 rows:

SMILES	read-out	cell line	method	dose	strain	result
Cn1cc(C(=O)NCc2ccc(Cl)cc2)c(=O)c2cc(CN3CCOCC3)ccc21	inhibition	HFF	plaque count	2.2 µM	GA varicella isolate	90%
COc1cc(OC)c(NC(=S)Nc2ccc(NC(C)=O)cc2C#N)cc1Cl	inhibition	HFF	ELISA	10 µg/mL	ELLEN	3%

ECn is the concentration giving n% inhibition of infection, replication or growth. Inhibition is in % at the dose shown (toxicity tests: loss of growth or viability). Rows are shuffled and stem from different studies.